ChEMBL document CHEMBL1149649, “Synthesis and anti-influenza activities of carboxyl alkoxyalkyl esters of 4-guanidino-Neu5Ac2en (zanamivir)” (Bioorg Med Chem Lett, 2007)

Tested on: Influenza A virus
Assay: Antiviral activity against influenza A/Jingfang/Fm1 (H1N1) infected in mouse assessed as survival of mouse at 100 mg/kg, ip bid after 2 hrs of viral infection for 5 days
Conditions: route intraperitoneal

SMILES: NC(=O)c1ncn([C@@H]2O[C@H](CO)[C@@H](O)[C@H]2O)n1 [RIBAVIRIN]
- Survival: 100%
